Experimental findings from PMC12457685 (Scientific Reports, 2025) are described below.

The match of structure and compound is tentative.

What all share (type): binding
The target in one assay is SARS-CoV-2 Alpha RBD (Severe acute respiratory syndrome coronavirus 2, UniProt P0DTC2). Kind of assay: SPR multi-cycle kinetics, SARS-CoV-2 Alpha RBD over immobilized ACE2 epitopes. To be noted: for ka / kd: SPR individual measurement.
For the next assay, the target named is SARS-CoV-2 Delta RBD (Severe acute respiratory syndrome coronavirus 2, UniProt P0DTC2, L452R/T478K). Kind of assay: SPR multi-cycle kinetics, SARS-CoV-2 Delta RBD over immobilized ACE2 epitopes.
A further assay deals with SARS-CoV-1 RBD (Severe acute respiratory syndrome coronavirus, UniProt P59594). Kind of assay: SPR multi-cycle kinetics, SARS-CoV-1 RBD over immobilized ACE2 epitopes. The settings on record: for Kd / ka / kd: SPR individual measurement.
A further assay addresses SARS-CoV-2 spike protein (Severe acute respiratory syndrome coronavirus 2, UniProt P0DTC2, A892P/A899P/A942P/F817P/K986P/R682G/R683S/R685S/V987P). Nature of the assay: SPR multi-cycle kinetics, full SARS-CoV-2 spike protein over immobilized ACE2 epitopes. To be noted: for ka / kd: SPR individual measurement.
Where [1] appears, read: replicate 1 (first printed line).
The mark [2] stands for this setting: replicate 2 (second printed line).
[3] abbreviates: SPR individual measurement, replicate 1 (first printed line).
Setting [4] is: SPR individual measurement, replicate 2 (second printed line).

The term Kd denotes a measure of binding affinity in units of concentration. Low values mean tighter binding, high ones weaker binding. As for `C#CC[C@H](NC(=O)[C@@H](NC(=O)[C@H](CC(C)C)NC(=O)[C@H](CCSC)NC(=O)[C@H](CO)NC(=O)[C@H](CC(N)=O)NC(=O)[C@H](CCC(=O)O)NC(=O)[C@H](Cc1c[nH]c2ccccc12)NC(=O)[C@H](Cc1ccccc1)NC(=O)CNC(=O)[C@H](CCC(N)=O)NC(=O)[C@@H](NC(=O)[C@@H](N)CCSC)[C@@H](C)O)[C@@H](C)O)C(N)=O`, the ka at SARS-CoV-2 Alpha RBD (setting [1]) is 8,39e3 M-1s-1; at SARS-CoV-2 Alpha RBD (setting [2]), 7,83e3 M-1s-1; at SARS-CoV-2 Delta RBD (setting [3]), 1,83e3 M-1s-1; at SARS-CoV-2 Delta RBD (setting [4]), 4,43e3 M-1s-1; on SARS-CoV-1 RBD (setting [1]), 5,32e3 M-1s-1; on SARS-CoV-1 RBD (setting [2]) it was 2,50e3 M-1s-1. Besides, the figures for the ka at SARS-CoV-2 spike protein (setting [1]) and on SARS-CoV-2 spike protein (setting [2]) were 7,5e3 M-1s-1 and 6,2e3 M-1s-1, respectively. For the same molecule, the kd at SARS-CoV-2 Alpha RBD (setting [1]) is 2,68e-3 s-1; on SARS-CoV-2 Alpha RBD (setting [2]), 5,11e-3 s-1; at SARS-CoV-2 Delta RBD (setting [3]), 9,97e-3 s-1; on SARS-CoV-2 Delta RBD (setting [4]) it was 2,64e-3 s-1; on SARS-CoV-1 RBD (setting [1]), 9,97e-3 s-1; at SARS-CoV-1 RBD (setting [2]) it was 8,20e-3 s-1. The kd at SARS-CoV-2 spike protein (setting [1]) is 1,53e-3 s-1; at SARS-CoV-2 spike protein (setting [2]) it was 6,386e-3 s-1. In addition, the “binding (in words)” value is recorded as “only weak interactions were detected” on SARS-CoV-2 Alpha RBD (single-epitope sensor, SPR); “only weak interactions were detected” on SARS-CoV-2 Delta RBD (single-epitope sensor, SPR); “only weak interactions were detected” at SARS-CoV-1 RBD (single-epitope sensor, SPR); “did not show measurable signals attributable to effective interactions with the spike protein” on SARS-CoV-2 spike protein (single-epitope sensor, SPR, full spike protein). Moreover, the Kd stood at 5.44 µM on SARS-CoV-2 Delta RBD (setting [3]), 1870 nM on SARS-CoV-1 RBD (setting [1]) and 3280 nM on SARS-CoV-1 RBD (setting [2]).
